A mixed list of measured activities; the numbers were collected in NIAID ChemDB.

Shared fields: growth or infection tests; agent: Parainfluenza virus; cells: VERO; measure: EC50

Conditions beyond the fields shown may differ between rows. Two numbers with a dash give a range or band. ECn: concentration that inhibits the pathogen or its effect by n%.

smiles,strain or isolate,method,result
O=c1[nH]c(=O)n([C@H]2C[C@H](O)[C@@H](CO)O2)cc1/C=C/Br,TYPE 3,cytopathic effect,>400 µg/mL
Nc1ccn([C@@H]2C[C@H](CO)[C@@H](O)[C@H]2O)c(=O)n1,TYPE 3,cytopathic effect,6 µg/mL
Nc1ncnc2c1ncn2[C@@H]1C[C@H](CO)[C@@H](O)C1,TYPE 3,cytopathic effect,>100 µg/mL
Nc1nc(N)c2ncn(C[C@H]3CC[C@@H](CO)C3)c2n1,TYPE 3,cytopathic effect,>200 µg/mL
Nc1nccc2c1ncn2[C@@H]1C=C[C@@H](O)[C@H]1O,TYPE 3,cytopathic effect,2 µg/mL
Nc1nc(Cl)c2nnn(C[C@H]3CC[C@@H](CO)C3)c2n1,TYPE 3,cytopathic effect,>200 µg/mL
Nc1nccc2c1ncn2[C@@H]1C[C@H](CO)[C@@H](O)[C@H]1O,TYPE 3,cytopathic effect,0.2 µg/mL
Cc1cn([C@@H]2CC[C@H](CO)C2)c(=O)[nH]c1=O,TYPE 3,cytopathic effect,>400 µg/mL
NC(=O)c1ncn([C@@H]2O[C@H](CO)[C@@H](O)[C@H]2O)n1,TYPE 3,cytopathic effect,40 µg/mL
Nc1nccc2c1ncn2[C@@H]1C[C@H](CO)[C@@H](O)[C@H]1O,TYPE 3,cytopathic effect,0.2 µg/mL
Nc1nc2c(ncn2C[C@H]2CC[C@@H](CO)C2)c(=O)[nH]1,TYPE 3,cytopathic effect,>200 µg/mL
Nc1nccc2c1ncn2[C@@H]1C[C@H](CO)[C@@H](O)[C@H]1O,TYPE 3,cytopathic effect,4 µg/mL
Nc1ncnc2c1ncn2C[C@H](O)CO,TYPE 3,cytopathic effect,100 µg/mL
C#Cc1c(C(N)=O)ncn1[C@@H]1O[C@H](CO)[C@@H](O)[C@H]1O,TYPE 2/GREER,plaque count,1.31 µg/mL
Nc1nccc2c1ncn2[C@@H]1C[C@H](CO)[C@@H](O)[C@H]1O,TYPE 3,cytopathic effect,0.2 µg/mL
CCN1C[C@]2(COC)CC[C@H](O)[C@]34C1[C@@](O)([C@@H](OC)[C@H]23)[C@@]1(O)C[C@H](OC)C2C[C@@H]4[C@@H]1[C@H]2O,TYPE 3,cytopathic effect,1–32 µg/mL
Nc1ncnc2c1ncn2C[C@@H](O)[C@H](O)C(=O)O,TYPE 3,cytopathic effect,150 µg/mL
NC(=O)c1csc([C@@H]2O[C@H](CO)[C@@H](O)[C@H]2O)n1,TYPE 3/C243,cytopathic effect,150 µg/mL
NC(=O)c1ncn([C@@H]2O[C@H](CO)[C@@H](O)[C@H]2O)c1C#CCO,TYPE 3,cytopathic effect,4 µg/mL
Nc1ncnc2c1ccn2[C@@H]1C[C@H](CO)[C@@H](O)[C@H]1O,TYPE 3,cytopathic effect,2 µg/mL
Nc1nccc2c1ncn2[C@@H]1C[C@H](CO)[C@@H](O)[C@H]1O,TYPE 3,cytopathic effect,2 µg/mL
CCN1C[C@]2(COC)CC[C@H](OC)[C@]34C1[C@@](O)([C@@H](OC)[C@H]23)[C@@]1(O)C[C@H](OC)C2C[C@@H]4[C@@H]1[C@H]2OC(C)=O,TYPE 3,cytopathic effect,1–32 µg/mL
C#Cc1c(C(N)=O)ncn1[C@@H]1O[C@H](CO)[C@@H](O)[C@H]1O,TYPE 2/CA GREER,plaque count,0.63 µg/mL
Nc1ncnc2c1ncn2C1CC(CO)[C@@H](O)[C@H]1O,TYPE 3,cytopathic effect,≥4 µg/mL
Nc1nc(N)c2nnn(C[C@H]3CC[C@@H](CO)C3)c2n1,TYPE 3,cytopathic effect,>100 µg/mL
Cc1cn([C@@H]2C[C@H](CO)[C@H](O)C2)c(=O)[nH]c1=O,TYPE 3,cytopathic effect,>200 µg/mL
C#Cc1c(C(N)=O)ncn1[C@@H]1O[C@H](CO)[C@@H](O)[C@H]1O,TYPE 3,cytopathic effect,2 µg/mL
Cc1cn([C@H]2C[C@@H]3OC[C@H]2[C@@H]3CO)c(=O)[nH]c1=O,TYPE 3,cytopathic effect,>400 µg/mL
C[C@H]1C[C@@H](n2cnc3c(N)ncnc32)[C@H](O)[C@@H]1O,VR-93 (TYPE 3),cytopathic effect,20 µg/mL

The last 4 rows once more:

| smiles | strain or isolate | method | result |
|---|---|---|---|
| Cc1cn([C@@H]2C[C@H](CO)[C@H](O)C2)c(=O)[nH]c1=O | TYPE 3 | cytopathic effect | >200 µg/mL |
| C#Cc1c(C(N)=O)ncn1[C@@H]1O[C@H](CO)[C@@H](O)[C@H]1O | TYPE 3 | cytopathic effect | 2 µg/mL |
| Cc1cn([C@H]2C[C@@H]3OC[C@H]2[C@@H]3CO)c(=O)[nH]c1=O | TYPE 3 | cytopathic effect | >400 µg/mL |
| C[C@H]1C[C@@H](n2cnc3c(N)ncnc32)[C@H](O)[C@@H]1O | VR-93 (TYPE 3) | cytopathic effect | 20 µg/mL |